Pooled drug test results. Numbers come from NIAID ChemDB, via PubChem.

Shared fields: whole-cell or culture tests

Lines come from different laboratories, so protocols vary. Percent inhibition refers to the dose given; in toxicity tests it is the harm to the cells. Zone: diameter of growth inhibition. Two numbers with a dash give a range or band. A number after MIC or MFC names an inhibition level or a share of isolates. Blank or dashed fields: not listed here.

structure,species,strain or isolate,mutations,method,setting,endpoint,dose,value
CC1=C2C(=O)c3c(C)coc3C[C@@]2(C)[C@H](O)C[C@H]1O,Aspergillus spp.,ATCC 293,-,broth dilution,-,MIC,-,>256 µg/mL
O=C(NN=CC1C(c2ccccc2)=Nc2ccccc21)N1c2ccccc2C=Cc2ccccc21,Aspergillus terreus,MTCC-1782,-,agar diffusion,-,zone,500 µg/mL,8 mm
Cn1cccc1/C=C1\SC(=O)N(CC(O)(Cn2nccn2)c2ccc(F)cc2F)C1=O,Aspergillus glaucus,-,-,-,-,MIC,-,>100 µg/mL
Cc1ccc(S(=O)(=O)CNc2oc3[nH]c(=O)[nH]c(=O)c3c2-c2ccc(O)cc2)cc1,Aspergillus oryzae,-,-,agar diffusion / agar,-,zone,50 µg/mL,13 mm
O=C1S/C(=C\c2cccnc2)C(=O)N1CC(O)(Cn1nccn1)c1ccc(F)cc1F,Aspergillus glaucus,-,-,-,-,MIC,-,>100 µg/mL
C[C@H]1[C@H](O)[C@@H](C)/C=C/C=C/C=C/C=C/C=C/C=C/C=C/[C@H](O[C@@H]2O[C@H](C)[C@@H](O)[C@H](N)[C@@H]2O)C[C@@H]2O[C@](O)(C[C@@H](O)C[C@@H](O)CC[C@H](O)[C@@H](O)C[C@@H](O)CC(=O)O[C@H]1C)C[C@H](O)[C@H]2C(=O)O,Aspergillus terreus,ATCC 10690,-,broth dilution,24 h,MIC100,-,0.5 µg/mL
COc1cc(/C=C/C(C)=O)ccc1O,Aspergillus oryzae,MTCC 262,-,broth dilution,-,MIC,-,937 µM
CCC(C)n1ncn(-c2ccc(N3CCN(c4ccc(OC[C@H]5CO[C@](Cn6cncn6)(c6ccc(Cl)cc6Cl)O5)cc4)CC3)cc2)c1=O,Aspergillus lentulus,-,-,broth dilution,-,MIC90,-,2 µg/mL
Cc1ccc2c(c1)C(C1SCC(=O)N1NC(=O)N1c3ccccc3C=Cc3ccccc31)C(c1ccccc1)=N2,Aspergillus terreus,MTCC-1782,-,agar diffusion,-,zone,1000 µg/mL,15 mm
COC(=O)/C(C)=C1\C(=O)[C@H](O)[C@]2(C)C3=C1[C@]14OC(=O)C5=C1C[C@H]1[C@](O)(COC(=O)/C(C)=C/COC(=O)CCC(=O)OC5)[C@H]5C[C@H]5[C@]1(C)[C@@H]4C[C@]3(O)[C@H]1C[C@H]12,Aspergillus spp.,ATCC 293,-,broth dilution,-,MIC,-,64 µg/mL
Cc1ccc(-c2c(NCS(=O)(=O)c3ccc(C)cc3)oc3[nH]c(=O)[nH]c(=O)c23)cc1,Aspergillus oryzae,-,-,agar diffusion / agar,-,zone,100 µg/mL,25 mm
NC(=S)NN=Cc1cccs1,Aspergillus ochraceus,MCT 00435,-,broth dilution,-,MIC,-,125 µg/mL
Cc1coc2c1C(=O)[C@@H]1[C@](C)([C@H](O)CC[C@@]1(C)O)[C@@H]2O,Aspergillus spp.,ATCC 293,-,broth dilution,-,MIC,-,>256 µg/mL
CCCCCCCCCCCCOC(=O)[C@]1(O)C[C@@H](O)[C@@H](O)[C@H](OC(=O)/C=C/c2ccc(O)c(O)c2)C1,Aspergillus parasiticus,Speare UMIP 1142.76,-,-,-,MIC80,-,1500 µg/mL
CC(C)C[C@H](N)C(=O)O,Aspergillus terreus,MRCM 26158,-,broth dilution,-,MFC100,-,>18000 µg/mL
Cc1cccc(/C=N/NC(N)=S)n1,Aspergillus parasiticus,MCT 00334,-,broth dilution,-,MIC,-,500 µg/mL
Cc1ccc2c(c1)C(C=NNC(=O)N1c3ccccc3C=Cc3ccccc31)C(c1ccccc1)=N2,Aspergillus terreus,MTCC-1782,-,agar diffusion,-,zone,500 µg/mL,3 mm
CN(C)c1ccc(/C=C2\SC(=O)N(CC(O)(Cn3nccn3)c3ccc(F)cc3F)C2=O)cc1,Aspergillus glaucus,-,-,-,-,MIC,-,>100 µg/mL
C[C@@H](c1ncncc1F)[C@](O)(Cn1cncn1)c1ccc(F)cc1F,Aspergillus terreus,CBS 594.65,-,broth dilution,-,MIC,-,1 µg/mL
C[C@@H]1C/C=C/C=C/C=C/C=C/[C@H](OC2O[C@H](C)[C@@H](O)[C@H](N)[C@@H]2O)CC2O[C@](O)(C[C@@H](O)C[C@H]3O[C@@H]3/C=C/C(=O)O1)C[C@H](O)[C@H]2C(=O)O,Aspergillus versicolor,Species complex,-,-,-,MIC90,-,32 µg/mL
CCCCCOc1ccc(-c2cc(-c3ccc(C(=O)N[C@H]4C[C@@H](O)[C@@H](O)NC(=O)[C@@H]5[C@@H](O)[C@@H](C)CN5C(=O)[C@H]([C@H](O)CC(N)=O)NC(=O)[C@H]([C@H](O)[C@@H](O)c5ccc(O)c(OS(=O)(=O)O)c5)NC(=O)[C@@H]5C[C@@H](O)CN5C(=O)[C@H]([C@@H](C)O)NC4=O)cc3)no2)cc1,Aspergillus terreus,-,-,broth dilution,-,MIC50,-,0.016 µg/mL
CCC(C)n1ncn(-c2ccc(N3CCN(c4ccc(OC[C@H]5CO[C@](Cn6cncn6)(c6ccc(Cl)cc6Cl)O5)cc4)CC3)cc2)c1=O,Aspergillus fumigatus,AF293,mpkC,broth dilution,-,inhibition,32 µg/mL,99.83%
O=C1S/C(=C\c2ccc(F)cc2F)C(=O)N1CC(O)(Cn1nccn1)c1ccc(F)cc1F,Aspergillus glaucus,-,-,-,-,MIC,-,>100 µg/mL
Cc1cc(O)c2c(c1)C(=O)c1cc(O)c(O)c(O)c1C2=O,Aspergillus nidulans,-,cclA delta,visual reading,-,MIC100,-,71–142 µM
CC(=O)N1CCN(c2ccc(OC[C@H]3CO[C@](Cn4ccnc4)(c4ccc(Cl)cc4Cl)O3)cc2)CC1,Aspergillus versicolor,ATCC 11730,-,broth dilution,-,MIC,-,200 µg/mL
O=C1S/C(=C\c2ccco2)C(=O)N1CC(O)(Cn1nccn1)c1ccc(F)cc1F,Aspergillus glaucus,-,-,-,-,MIC,-,>100 µg/mL
C[C@@H](c1ncncc1F)[C@](O)(Cn1cncn1)c1ccc(F)cc1F,Aspergillus terreus,-,-,broth dilution,-,MIC50,-,0.5 µg/mL
CCCCCOc1ccc(-c2ccc(-c3ccc(C(=O)N[C@H]4C[C@@H](O)[C@@H](O)NC(=O)[C@@H]5[C@@H](O)[C@@H](C)CN5C(=O)[C@H]([C@H](C)O)NC(=O)[C@H]([C@H](O)[C@@H](O)c5ccc(O)cc5)NC(=O)[C@@H]5C[C@@H](O)CN5C(=O)[C@H]([C@H](C)O)NC4=O)cc3)cc2)cc1,Aspergillus fumigatus,Isolate AF210,-,-,-,MFC,-,0.06 µg/mL
CC(C)CC(O)C(=O)O,Aspergillus terreus,MRCM 25730,-,broth dilution / visual reading,-,MFC100,-,36000 µg/mL
CC1=C2C3=C4[C@](C)([C@@H]5C[C@@H]5[C@@]4(O)C[C@@H]4[C@]35OC(=O)C3=C5C[C@H]5[C@](O)(COC(=O)/C(C)=C/COC(=O)CCC(=O)OC3)[C@H]3C[C@H]3[C@]45C)[C@H](O)[C@]2(O)OC1=O,Aspergillus spp.,ATCC 293,-,broth dilution,-,MIC,-,>256 µg/mL
Cc1ccc(S(=O)(=O)CNc2oc3[nH]c(=O)[nH]c(=O)c3c2-c2ccc(F)cc2)cc1,Aspergillus oryzae,-,-,agar diffusion / agar,-,zone,100 µg/mL,28 mm
OO,Aspergillus terreus,UAB673,-,agar,-,MIC99,-,2000 µM
Cc1ccc(C(C)C)cc1,Aspergillus fumigatus,F17,-,-,-,MLC,-,>20 µg/mL

The first 2 rows once more:

structure,species,strain or isolate,mutations,method,setting,endpoint,dose,value
CC1=C2C(=O)c3c(C)coc3C[C@@]2(C)[C@H](O)C[C@H]1O,Aspergillus spp.,ATCC 293,-,broth dilution,-,MIC,-,>256 µg/mL
O=C(NN=CC1C(c2ccccc2)=Nc2ccccc21)N1c2ccccc2C=Cc2ccccc21,Aspergillus terreus,MTCC-1782,-,agar diffusion,-,zone,500 µg/mL,8 mm